Pooled drug test results. Numbers come from NIAID ChemDB, via PubChem.

Shared fields: host cell toxicity; cells: MT-4; endpoint: CC50

CCn is the concentration with n% toxicity to the cells. Rows are shuffled and stem from different studies.

| structure | value |
|---|---|
| CC(C)C[C@H](NC(=O)[C@@H](NC(=O)[C@H](Cc1c[nH]c2ccccc12)NC(=O)CCCCC(=O)Nc1ccn([C@H]2CC[C@@H](CO)O2)c(=O)n1)C(C)C)[C@@H](O)CC(=O)NC(Cc1ccccc1)c1ccccc1 | 100 µM |
| NC(=O)/C(=C\c1ccccc1)n1nc2ccccc2n1 | 39 µM |
| O=C(NCCc1ccccc1)Nc1nc(C(F)(F)F)cs1 | >1 µg/mL |
| N#C/C(=C\c1ccc(F)c(F)c1)n1nnc2ccccc21 | 2.5 µM |
| CCOC(=O)c1cc(-c2ccccc2)n(-c2cccc(N)c2)c1C | >300 µM |
| CC(=O)OC[C@H]1O[C@@H](n2ccc(N)nc2=O)CS1 | 350 µM |
| CCOC(=O)c1cc(-c2cccc(OC)c2)n(-c2cccc(N=[N+]=[N-])c2)c1C | 6.4 µM |
| CC(Cc1ccccc1)NC(=S)Nc1nccs1 | 108 µM |
| CSCCC(NS(=O)(=O)c1ccc(Cl)cc1)c1nnc(SCc2ccc(Cl)cc2)o1 | 11.88 µg/mL |
| Cn1cccc1CCNC(=S)Nc1nccs1 | 143 µM |
| CCOC(=O)C1c2cccn2S(=O)(=O)c2ccccc2N1C(=O)CBr | 10.7 µM |
| S=C(NCCc1ccccc1)Nc1cnccn1 | >390 µM |
| CC(NS(=O)(=O)c1ccc(Cl)cc1)c1nnc(SCc2ccccc2)o1 | >65.63 µg/mL |
| COc1cccc(F)c1CCNC(=S)Nc1nccs1 | 51 µM |
| CC1(C)C(N)=CS(=O)(=O)N1Cc1ccccc1 | >125 µg/mL |
| O=C(NCCc1ccccc1)Nc1nccs1 | 113 µM |
| N#C/C(=C\c1ccc(C(F)(F)F)cc1)n1nc2ccccc2n1 | 3.5 µM |
| CSCCC(NS(=O)(=O)c1ccc(C)cc1)c1nnc(SCc2ccc(F)cc2)o1 | ≥11.5 µg/mL |
| O=C(NCCc1ccccc1)Nc1nc2ccc(F)cc2s1 | >100 µg/mL |
| COc1cccc2c1c1ccc(N)cc1n1c(C)c(C(C)=O)cc21 | 18 µM |
| N#Cc1csc(NC(=O)NCCc2ccccc2)n1 | ~1 µg/mL |
| CCn1c(C)c(C(=O)OC)c(C(=O)OC)c1Cc1ccccc1 | 59 µM |
| O=S1(=O)c2ccccc2NC(CO)c2cccn21 | 200 µM |
| CC(C)CC(NC(=O)OC(C)(C)C)C(=O)N1CCC(O)C1 | >100 µM |
| Nc1ncnc2c1ncn2[C@@H]1C=C[C@H](CO)[C@H]1CO | >100 µg/mL |
| CCOC(=O)c1cc2c3cc(N)ccc3c3ccc(OC)cc3n2c1C | >200 µM |
| O=S(=O)(O)O.OCC1OC(OC2C(O)C(CO)OC(OC3C(O)C(CO)OC(OC4C(O)C(O)OC(CO)C4O)C3O)C2O)C(O)C(O)C1O | 198 µg/mL |
| CC(C)(C)OC(=O)NC(Cc1ccc(OCc2ccccc2)cc1)C(=O)N1CCC(=O)C1 | 50 µM |
| N#C/C(=C/c1ccc[nH]1)n1nc2ccccc2n1 | 80 µM |
| CC(C)(C)OC(=O)NCC(=O)N1CCC(O)C1 | >100 µM |
| CCOC(=O)c1cc(-c2cccc(N=[N+]=[N-])c2)n(-c2cccc(OC)c2)c1C | 47 µM |
| CC1(C)OS(=O)(=O)C=C1NCCc1ccccc1 | >125 µg/mL |
| O=c1[nH]cnc2c1ncn2[C@@H]1O[C@H](CO)[C@@H](F)[C@H]1O | >500 µM |
| CCOC(=O)c1cc(-c2cccc(N)c2)n(-c2cccc(OC)c2)c1C | 32 µM |
| CSCCC(NS(=O)(=O)c1ccc(C)cc1)c1nnc(SCc2ccccc2)o1 | 30.48 µg/mL |
| CCOC(=O)CC1Nc2ccccc2S(=O)(=O)n2cccc21 | >312 µM |
| CC[C@@]1(O)C[C@H](O[C@H]2C[C@H](N(C)C)[C@H](O[C@H]3C[C@H](O)[C@H](O[C@H]4CCC(=O)[C@H](C)O4)[C@H](C)O3)[C@H](C)O2)c2c(cc3c(c2O)C(=O)c2c(O)cccc2C3=O)[C@H]1C(=O)OC | <0.1 µg/mL |
| COC(=O)CC1c2cccn2S(=O)(=O)c2ccccc2N1C(=O)c1ccc(C)cc1 | >244 µM |
| CC1(C)C(N)=CS(=O)(=O)N1Cc1ccc(Cl)cc1 | 75 µg/mL |
| O=c1ccn([C@@H]2O[C@H](CO)[C@@H](F)[C@H]2O)c(=O)[nH]1 | 38 µM |
| CC(=O)NC[C@H]1CN(c2ccc(N3CCSCC3)c(F)c2)C(=O)O1 | >100 µM |
| COc1ccc(OC)c(CCNC(=S)Nc2nccs2)c1 | 86 µM |
| Cc1ccc(C(=O)Nc2ccc(S(=O)(=O)O)c3cc(S(=O)(=O)O)cc(S(=O)(=O)O)c23)cc1NC(=O)c1cccc(NC(=O)Nc2cccc(C(=O)Nc3cc(C(=O)Nc4ccc(S(=O)(=O)O)c5cc(S(=O)(=O)O)cc(S(=O)(=O)O)c45)ccc3C)c2)c1 | 625 µM |
| CCn1cc(C(=O)O)c(=O)c2cc(F)c(N3CCN(c4ccccc4OC)CC3)c(OC(F)F)c21 | 2.3 µM |
| N#CCC1Nc2ccccc2S(=O)(=O)n2cccc21 | >366 µM |
| COc1ccc(CNC2=CS(=O)(=O)OC2(C)C)c(OC)c1 | >125 µg/mL |
| CC(C)C[C@H](NC(=O)[C@@H](NC(=O)[C@H](Cc1c[nH]c2ccccc12)NC(=O)CCCCC(=O)Nc1ccn([C@H]2CC[C@@H](CO[Si](c3ccccc3)(c3ccccc3)C(C)(C)C)O2)c(=O)n1)C(C)C)[C@@H](O)CC(=O)NC(Cc1ccccc1)c1ccccc1 | 100 µM |
| CC1=C(/C=C/C=C/C=C/C=C/C(=O)Nc2ccn([C@H]3CS[C@@H](CO)O3)c(=O)n2)C(C)(C)CCC1 | 50 µM |
| CC(C)CC(NC(=O)OC(C)(C)C)C(=O)N1CCC(=O)C1 | >100 µM |
| CC(=O)c1cc(-c2ccccc2)n(-c2cccc(N=[N+]=[N-])c2)c1C | 6.3 µM |
| N#C/C(=C\c1cccc([N+](=O)[O-])c1)n1nnc2ccccc21 | 0.4 µM |
| CC(=O)Nc1ccn([C@H]2CS[C@@H](CO)O2)c(=O)n1 | 380 µM |
| Fc1ccc(CCNC(=S)Nc2nccs2)cc1 | 78 µM |
| CCOC(=O)C12CC(=O)N1c1ccccc1N(C)n1cccc12 | >369 µM |
| O=S(=O)(O)O.OCC1OC(OC2C(O)C(CO)OC(OC3C(O)C(CO)OC(OC4C(O)C(CO)OC(OC5C(O)C(O)OC(CO)C5O)C4O)C3O)C2O)C(O)C(O)C1O | 247 µg/mL |
| CN1CC(=O)N2c3ccccc3S(=O)(=O)n3cccc3C2C1=O | 302 µM |
| Cc1nc(NC(=O)NCCc2ccccc2)sc1C | >100 µg/mL |
| S=C(NCCc1ccccc1Cl)Nc1nccs1 | 100 µM |
| CC1(Cc2ccccc2)OS(=O)(=O)C(c2ccccc2)=C1N | >125 µg/mL |

For reference, 3 entries again:

| structure | value |
|---|---|
| COc1cccc(F)c1CCNC(=S)Nc1nccs1 | 51 µM |
| N#Cc1csc(NC(=O)NCCc2ccccc2)n1 | ~1 µg/mL |
| CSCCC(NS(=O)(=O)c1ccc(C)cc1)c1nnc(SCc2ccc(F)cc2)o1 | ≥11.5 µg/mL |